Measured values from several laboratories, pooled; numbers as filed in NIAID ChemDB.

Common to all: growth or infection tests; organism: HIV-1; cell line: MT-2; read-out: inhibition

An empty or dashed field is not shown. Percent inhibition refers to the dose given; in toxicity tests it is the harm to the cells. Lines come from different laboratories, so protocols vary.

compound	strain	method	tested at	value
CC(C)CN(C[C@@H](O)[C@H](Cc1ccccc1)NC(=O)[C@@H](NC(=O)CNC(C)(C)c1cccc(F)c1)C(C)(C)C)S(=O)(=O)c1ccc2cn[nH]c2c1	RF		90 µM	<1%
O=C(C(=O)N1CCN(C(=O)c2ccccc2)CC1)c1c[nH]c2ccccc12	BRU	RT activity	10 µM	>98%
C[C@H](NC(=O)[C@]12CCC(C)(C)C[C@H]1C1=CC[C@@H]3[C@@]4(C)C[C@@H](O)[C@H](O)C(C)(C)[C@@H]4CC[C@@]3(C)[C@]1(C)CC2)C(=O)NCC(=O)O	pNL4-3	p24 / ELISA	10 µM	-34.5%
Cc1ccc(S(=O)(=O)N(CC(C)C)C[C@@H](O)[C@H](Cc2ccccc2)NC(=O)[C@@H](NC(=O)CNC(C)(C)c2cccc(F)c2)C(C)(C)C)cc1N	RF		90 µM	<1%
O=C(C(=O)N1CCN(C(=O)c2ccccc2)CC1)c1c[nH]c2cccc(Cl)c12	BRU	RT activity	10 µM	>98%
CC(C)[C@H](NC(=O)CCCCCNC(=O)[C@]12CCC(C)(C)C[C@H]1C1=CC[C@@H]3[C@@]4(C)C[C@@H](O)[C@H](O)C(C)(C)[C@@H]4CC[C@@]3(C)[C@]1(C)CC2)C(=O)O	pNL4-3	p24 / ELISA	25 µM	3.5%
Nc1nc(=O)n([C@@H]2CC[C@H](CO)O2)cc1F	IIIB	cytopathic effect / MTT	1.2 µM	96%
C[C@H](NC(=O)[C@]12CCC(C)(C)C[C@H]1C1=CC[C@@H]3[C@@]4(C)C[C@@H](O)[C@H](O)C(C)(C)[C@@H]4CC[C@@]3(C)[C@]1(C)CC2)C(=O)O	pNL4-3	p24 / ELISA	10 µM	-24.2%
CC(=O)Oc1ccccc1C(=O)N1CCN(C(=O)C(=O)c2c[nH]c3ccccc23)CC1	BRU	RT activity	10 µM	65.4%
CCC(C)[C@H](NC(=O)CNC(C)(C)c1cccc(F)c1)C(=O)N[C@@H](Cc1ccccc1)[C@H](O)CN(CC(C)C)S(=O)(=O)c1ccc2ncsc2c1	RF		90 µM	<1%
Nc1nc(=O)n([C@H]2CC[C@@H](CO)O2)cc1F	IIIB	cytopathic effect / MTT	1.2 µM	52%
O=C(C(=O)N1CCN(C(=O)c2c(F)cccc2F)CC1)c1c[nH]c2ccccc12	BRU	RT activity	10 µM	66.8%
CC(=O)N[C@@H](Cc1c[nH]c2ccccc12)C(=O)N[C@H](C(=O)N[C@@H](Cc1ccccc1)[C@H](O)[C@@H](O)[C@@H]1CCCN1C(=O)[C@@H](NC(=O)[C@H](Cc1c[nH]c2ccccc12)NC(C)=O)C(C)C)C(C)C	IIIB	MTT	0.01 µM	<10%
O=C(C(=O)N1CCN(C(=O)c2ccccc2)CC1)c1c[nH]c2ccc(Br)cc12	BRU	RT activity	10 µM	>98%
CC(C)CN(C[C@@H](O)[C@H](Cc1ccccc1)NC(=O)[C@@H](NC(=O)[C@@H](C)NC(C)(C)c1ccccc1)C(C)(C)C)S(=O)(=O)c1ccc2ncccc2c1	RF		90 µM	<1%
C[C@H](NC(=O)CCCCCNC(=O)[C@]12CCC(C)(C)C[C@H]1C1=CC[C@@H]3[C@@]4(C)C[C@@H](O)[C@H](O)C(C)(C)[C@@H]4CC[C@@]3(C)[C@]1(C)CC2)C(=O)NCC(=O)O	pNL4-3	p24 / ELISA	10 µM	-70.2%
CC(C)CN(C[C@@H](O)[C@H](Cc1ccccc1)NC(=O)[C@@H](NC(=O)CNC(C)(C)c1cccc(F)c1)C(C)C)S(=O)(=O)c1ccc2ncccc2c1	RF		90 µM	<1%
Cc1ccc2[nH]cc(C(=O)C(=O)N3CCN(C(=O)c4ccccc4)CC3)c2c1	BRU	RT activity	10 µM	49.5%
Nc1ccn([C@H]2CC[C@@H](CO)O2)c(=O)n1	LAV	RT activity	1 µM	93%

Again, the opening 2 rows:

{"compound": "CC(C)CN(C[C@@H](O)[C@H](Cc1ccccc1)NC(=O)[C@@H](NC(=O)CNC(C)(C)c1cccc(F)c1)C(C)(C)C)S(=O)(=O)c1ccc2cn[nH]c2c1", "strain": "RF", "tested at": "90 µM", "value": "<1%"}
{"compound": "O=C(C(=O)N1CCN(C(=O)c2ccccc2)CC1)c1c[nH]c2ccccc12", "strain": "BRU", "method": "RT activity", "tested at": "10 µM", "value": ">98%"}